The record followed here is paper PMC5691146.

This experiment deals with RidL_(2–1167)-Avi, biotinylated (Legionella pneumophila). Description: SPR. For orientation: Surface plasmon resonance follows binding to a sensor surface in real time, without labels.

A value given as a limit tells only on which side of the number the result lay.

Turning to “Vps29 (from UniProt Q9UBQ0 1-182) (natural protein)”, the Kd (usually the free concentration of one partner at which half of the binding sites on the other are occupied at equilibrium, for simple one-to-one binding) was 400 nM and the kon (as a rule, a measure of how fast the partners come together) is above 1e+06 M⁻¹ s⁻¹.
